Results of unrelated studies side by side (data: NIAID ChemDB).

Common to all: whole-cell or culture tests; agent: Aspergillus niger; endpoint: zone

Zone: diameter of growth inhibition. Neighbouring rows are from separate reports. Blank or dashed fields: not listed here.

smiles	tested at	read by	strain	value
Cc1ccc(N2NOC(=O)C2S(=O)(=O)Nc2nc3ccc(C)cc3s2)cc1	250 µg/mL	agar diffusion	MTCC 282	19 mm
NS(=O)(=O)c1ccc(NCc2ccc(O)c3ncccc23)cc1	25 µg/mL	agar		37 mm
C(/C=C/c1ccccc1)=NCCNCCN=C/C=C/c1ccccc1.N#C[S][Hg][S]C#N	30000 µg/mL	agar diffusion		28 mm
O=C1NC(=O)C(=Cc2cn(-c3ccccc3)nc2-c2cc3cc(Cl)ccc3oc2=O)C(=O)N1	150 µg	agar diffusion / agar		0 mm
CC(C)(C)c1ccc(O)c(C(C)(C)C)c1	10000 µg/mL	agar diffusion / agar		0.51 mm
CC(=O)Oc1c(-c2ccc(N(C)C)cc2)oc2ccc(Cl)cc2c1=O	100 µg/mL	agar diffusion		14 mm
Cc1ccc(N2NOC(=O)C2S(=O)(=O)Nc2ccc(-n3c(-c4ccc([N+](=O)[O-])cc4)nc4ccccc4c3=O)cc2)cc1	250 µg/mL	agar diffusion	MTCC 282	24 mm
Cc1nc2ccc(Br)cc2c(=O)n1-c1ccccc1[N+](=O)[O-]	50 µg/mL	agar diffusion / agar		18.68 mm
CC(=O)Oc1c(-c2ccco2)oc2ccc(Cl)cc2c1=O	100 µg/mL	agar diffusion		25 mm
Nc1ccc(S(N)(=O)=O)cc1	25 µg/mL	agar diffusion / agar		24 mm
Cc1ccc(N2NOC(=O)C2S(=O)(=O)Nc2nc3cc(F)ccc3s2)cc1	250 µg/mL	agar diffusion	MTCC 282	19 mm
Oc1ccccc1	10000 µg/mL	agar diffusion / agar		0 mm
O=C1NC(=O)C(=Cc2cn(-c3ccccc3)nc2-c2cc3cc(Cl)cc(Cl)c3oc2=O)C(=O)N1	100 µg	agar diffusion / agar		0 mm
Cc1nc2ccc(Br)cc2c(=O)n1-c1ccc(Br)cc1	50 µg/mL	agar diffusion / agar		24.77 mm
Cc1cc(CBr)nc(Nc2ccccc2)n1	1000 µg/mL			2.2 mm
Cc1nc(C)c(CC(O)c2ccc(Cl)cc2)nc1C	10000 µg/mL	agar diffusion / agar		0.42 mm
Cc1cc(C)nc(Nc2ccccc2)n1	1000 µg/mL			4 mm
NC(=O)c1ccc(Cc2cn(CCc3ccccc3)c(=O)n(Cc3ccccc3)c2=O)cc1	10000 µg/mL	agar diffusion / agar		0.54 mm
COc1ccc(-c2oc3ccc(Cl)cc3c(=O)c2O)cc1	100 µg/mL	agar diffusion		19 mm
C(/C=C/c1ccccc1)=NCCNCCN=C/C=C/c1ccccc1.[Br][Hg][Br]	20000 µg/mL	agar diffusion		25 mm
O=c1c(O)c(-c2ccco2)oc2ccc(Cl)cc12	100 µg/mL	agar diffusion		21 mm
O=C1NC(=S)NC(=O)C1=Cc1cn(-c2ccccc2)nc1-c1cc2cc(Cl)cc(Cl)c2oc1=O	100 µg	agar diffusion / agar		0 mm
Cc1ccc(N2NOC(=O)C2S(=O)(=O)Nc2nc(-c3c(Cl)cccc3Cl)cs2)cc1	250 µg/mL	agar diffusion	MTCC 282	21 mm
O=C1NC(=O)C(=Cc2cn(-c3ccccc3)nc2-c2cc3cc(Br)cc(Br)c3oc2=O)C(=O)N1	100 µg	agar diffusion / agar		7 mm
O=C(O)/C=C/c1ccccc1	50000 µg/mL	agar diffusion / agar		0.98 mm
Cc1nc2ccc(Br)cc2c(=O)n1-c1ccc([N+](=O)[O-])cc1	50 µg/mL	agar diffusion / agar		17.96 mm
O=C1NC(=S)NC(=O)C1=Cc1cn(-c2ccccc2)nc1-c1cc2cc(Br)ccc2oc1=O	150 µg	agar diffusion / agar		0 mm
COc1ccc(-c2oc3ccc(Cl)cc3c(=O)c2O)cc1OC	100 µg/mL	agar diffusion		16 mm
Cc1nc2ccc(Br)cc2c(=O)n1-c1ccccc1Br	50 µg/mL	agar diffusion / agar		23.07 mm
CC(=O)N(c1ccccc1)c1nc(C)cc(C)n1	10 µg/mL			2.1 mm
O=c1c(O)c(-c2ccccc2)oc2ccc(Cl)cc12	100 µg/mL	agar diffusion		15 mm

The first 4 rows once more:

smiles,tested at,read by,strain,value
Cc1ccc(N2NOC(=O)C2S(=O)(=O)Nc2nc3ccc(C)cc3s2)cc1,250 µg/mL,agar diffusion,MTCC 282,19 mm
NS(=O)(=O)c1ccc(NCc2ccc(O)c3ncccc23)cc1,25 µg/mL,agar,,37 mm
C(/C=C/c1ccccc1)=NCCNCCN=C/C=C/c1ccccc1.N#C[S][Hg][S]C#N,30000 µg/mL,agar diffusion,,28 mm
O=C1NC(=O)C(=Cc2cn(-c3ccccc3)nc2-c2cc3cc(Cl)ccc3oc2=O)C(=O)N1,150 µg,agar diffusion / agar,,0 mm